Results of unrelated studies side by side (data: NIAID ChemDB).

All rows: enzyme or target tests; species: Hepatitis C virus; protein: Nonstructural protein 3 protease

Neighbouring rows are from separate reports.

structure,strain,read by,endpoint,result
O=C(O)CSc1nc(-c2cccs2)c2c(n1)-c1ccccc1CC2,NS3-4A,PCR,IC50,0.188 µM
O=C(OC[C@H]1O[C@@H](OC(=O)c2cc(O)c(O)c(O)c2)[C@H](OC(=O)c2cc(O)c(O)c(O)c2)[C@@H](OC(=O)c2cc(O)c(O)c(O)c2)[C@@H]1OC(=O)c1cc(O)c(O)c(O)c1)c1cc(O)c(O)c(O)c1,,fluorescence,IC50,10.6 µM
CCCCCCCCCCCCCC1=C(O)C(=O)C=C(O)C1=O,,,IC50,7 µM
CC[C@@H]1C[C@]1(NC(=O)[C@@H]1C[C@@H](Oc2cc(-c3csc(NC(C)C)n3)nc3c(Cl)c(OCCN4CCOCC4)ccc23)CN1C(=O)[C@@H](NC(=O)OC1C[C@@H]2C[C@@H]2C1)C(C)(C)C)C(=O)O,gt 3,fluorescence,Ki,0.319 µM
CCCCCCCCCCCC1=C(O)C(=O)C=C(O)C1=O,,fluorescence,IC50,179.9 µM
CC(C)[C@H](NC(=O)OC(C)(C)C)C(=O)N1CC[C@H]2[C@H]1C1(CCCC1)C(=O)N2S(C)(=O)=O,,,IC50,31 µM
CC(=O)N1C(=S)NC2=C(CCc3ccccc32)C1c1cccs1,NS3-4A,PCR,IC50,0.288 µM
CC1O[C@@H](Oc2c(-c3ccc(O)c(O)c3)oc3cc(O)cc(O)c3c2=O)[C@H](O)[C@H](O)[C@H]1C,,,IC50,>100 µM
CCCC(NC(=O)[C@@H]1C2CCCC2CN1C(=O)[C@@H](NC(=O)[C@@H](NC(=O)c1cnccn1)C1CCCCC1)C(C)(C)C)C(=O)C(=O)N[C@@H](C)CC,,,Ki,0.084 µM
O=c1c(O[C@@H]2OC[C@H](O)[C@H](O)[C@H]2O)c(-c2ccc(O)c(O)c2)oc2cc(O)cc(O)c12,,,IC50,100 µM
O=C(O)C[C@H](C(=O)O)[C@H]1c2c(cc(O)c(O)c2O)C(=O)O[C@@H]1C(=O)O,,fluorescence,IC50,182.6 µM
C[C@@H]1C(=O)N(C(=O)C2CC2)[C@H]2CCN(C(=O)[C@@H]3CCCN3S(=O)(=O)c3cccc4c(N(C)C)cccc34)[C@H]12,,,IC50,97 µM
O=C(O)CC(C(=O)O)C1c2c(cc(O)c(O)c2O)C(=O)CC1C(=O)CC[C@H]1O[C@@H](OC(=O)c2cc(O)c(O)c(O)c2)[C@H](O)[C@@H](O)[C@@H]1O,,fluorescence,IC50,59.7 µM
CC(C)[C@H](NC(=O)OC(C)(C)C)C(=O)N1CC[C@H]2[C@H]1C1(CCC1)C(=O)N2S(C)(=O)=O,,,IC50,4.4 µM

2 of the rows above, restated:

| structure | strain | read by | endpoint | result |
|---|---|---|---|---|
| CC(C)[C@H](NC(=O)OC(C)(C)C)C(=O)N1CC[C@H]2[C@H]1C1(CCC1)C(=O)N2S(C)(=O)=O |  |  | IC50 | 4.4 µM |
| CCCCCCCCCCCCCC1=C(O)C(=O)C=C(O)C1=O |  |  | IC50 | 7 µM |

ICn: concentration for n% inhibition. Blank or dashed fields: not listed here.